Test [1] addresses T1, MOW15–22 RBD-hFc (MOW15–22 (bat MERSr-CoV sampled in …)). Briefly: BLI. A general note: Biolayer interferometry detects binding as a change in optical thickness at a sensor tip.
For test [2], the target named is T1, MOW15–22 RBD-hFc. Briefly: BLI; apparent KD.

Residue numbers refer to the chain shown, from its start.

B1: soluble dimeric P.nat.M2 ACE2 ectodomain (twin-strep-3×FLAG) (domain or fragment)
chain: QSLTTEEKAREFLDKFNSEAENWSHESALASWDYNTNINDKNAQKMNEADSKWSAFYKEHSKLAQGFPLQEIQNSTIKLQLQILQQNGSSVLTAEKSKRLSTILTTMSTIYSTGKVCNPNNPQQCFTLSGLEDIMEKSKDYHQRLWIWEGWRSEVGKQLRPLYEEYVALKNEMARGNNYKDYGDYWRGDYETEGGDGYNYSRNHLIEDVDRIFLEIKPLYEQLHAYVRAKLMNAYPSRISPTGCLPAHLLGDMWGRFWTNLYNLTVPFEKKQNIDVTDTMKKQSWDAEKIFKEAEKFYLSVGLHNMTPEFWNNSMLTEPSDGRQVVCHPTAWDLGKNDFRIKMCTKVTMDDFLTAHHEMGHIQYDMAYAKQPYLLRNGANEGFHEAVGEIMSLSAATPKHLKDLGLLAQNYPEDYETEINFLLKQALNIVGTLPFTYMLEKWRWMVFEGKIPKEQWMEKWWEMKREIVGVVEPLPHDETYCDPASLFHVANDYSFIRYFTRTILEFQFQEALCQIANHTGPLHKCDISNSTEAGKQLKNMLELGKSKPWTFALEQIARTKEMDAKPLLNYFKPLFSWLKELNGNSVGWSADWSPYSEQSIKVRISLKSALGEKAYEWNDNEMYLFRSSVAYAMRVYFLKVKNETIPFRAEDVWVSDEKIRVSFKFFVTSPTNVSDIIPRSEVEDAIRMSRGRINDAFRLDDKTLEFLGIQPTLGPPYQPPVT
The koff is the first-order rate constant of dissociation. B1 yielded a koff with MOW15–22 RBD-hFc [1] of 0.000246 s⁻¹. Also, in the test with MOW15–22 RBD-hFc [2], the Kd is 3.75 nM.

B2: soluble dimeric P.nat.M1 ACE2 ectodomain (twin-strep-3×FLAG) (domain or fragment)
chain: B1 chain with L581Q
B2: the Kd with MOW15–22 RBD-hFc [2] worked out at 10.8 nM.

For the origin of these results see PMC12360793 (2025).
